{"source": "patent US9481734B2", "about": "(Janssen Biotech, Inc., priority 2007, dated 2016)", "test_system": "human IgG1", "test": "Proteinase digestion of purified IgG1, Agilent biosizing", "type": "biochemical", "conditions": "human IgG1 heavy chain, EU numbering; 1% (w/w) enzyme, pH 7.5, 37° C.", "protocol": "A purified monoclonal antibody comprising a human IgG heavy chain was contacted with the proteases described and sampling was conducted over various durations of contact. Fragmentation in the samples was evaluated using the Agilent microfluidics “lab-on-a-chip” technology for in vitro biosizing (Goetz H et al. Biochemical and Biophysical Methods 60; 281-293, 2004).\nProteinase digestions of purified IgGs were carried out at pH 7.5 in phosphate-buffered saline (PBS) or, for the metalloproteinases, in Tris-buffered saline buffer at 37° C. Calcium chloride was included in the metalloproteinase reactions at 1 mM for MMP-12 and 10 mM for MMP-3; otherwise no additives were used. Antibody concentrations were typically 1 or 2 mg/mL and reactions were initiated by addition of enzyme to a 1% (w/w) ratio to IgG. […]\nThe major proteolytic cleavage positions in the IgG1 hinge were identified for enzyme-generated fragments by N-terminal sequencing of the purified Fc fragment (MMP-3 and MMP-12) and/or high resolution mass spectrometric analyses of the purified Fab (neutrophil elastase, plasmin) and F(ab′)2 (cathepsin G, glutamyl endopeptidase and IdeS) fragments. Fragmentation was evaluated using the Agilent microfluidics “lab-on-a-chip” technology.", "data": [{"substance": "Glutamyl endopeptidase I (Glu V8 protease): Staph. aureus serine endopeptidase", "values": [{"measurement": "Cleaved Site", "result": "Glu^233-"}]}]}
